PubChem BioAssay AID624099, ICCB-Longwood | 2012

Assay: 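Knock-downs relieving repression by E2 of an HPV18 LCR luciferase reporter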 (primary screen)
Cell system: human C33A cervical carcinoma cells (HPV-negative) stably expressing BPV1 E2 and an HPV18 LCR luciferase reporter
Reagent: siRNA pool against human genes, 40 nM
Time to read-out: 72 h
Measurement: 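Per-well luciferase luminescence, z-scored on each plate against the plate mean and SD with control wells left out, then averaged across three replicate plates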
Direction: mean z-score and z-score: higher = stronger reporter signal, weaker E2 silencing
Hit rule: 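Mean z ≥ 2 together with z ≥ 2 in two or more of the three replicates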
This is one part, drawn at random, of about 21,000 reagents tested. Over the whole deposit, 497 (2.4%) were called active. 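Higher z means weaker E2 silencing; only reporter increases were scored, and knock-downs that hurt cell survival may mask genuine repressor factors.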 Entries without a mark were called inactive. Reagent sequences are not shown.

C2CD4B | mean z-score = -0.41; z-score, replicate A = -0.94; z-score, replicate B = -0.3; z-score, replicate C = -0.01
PPP2CB | mean z-score = 0.05; z-score, replicate A = 0.27; z-score, replicate B = 0.08; z-score, replicate C = -0.19
DPM2 | mean z-score = -0.11; z-score, replicate A = -0.05; z-score, replicate B = 0.04; z-score, replicate C = -0.31
FAM50A | mean z-score = 1.34; z-score, replicate A = 1.17; z-score, replicate B = 1.16; z-score, replicate C = 1.68
ENHO | mean z-score = 0.86; z-score, replicate A = 0.9; z-score, replicate B = 1.02; z-score, replicate C = 0.66
CCL3L1 | mean z-score = -0.94; z-score, replicate A = -1.04; z-score, replicate B = -0.96; z-score, replicate C = -0.82
BRD7 | mean z-score = 1.5; z-score, replicate A = 1.96; z-score, replicate B = 1.35; z-score, replicate C = 1.18
ZBED1 | mean z-score = -0.24; z-score, replicate A = -0.38; z-score, replicate B = -0.13; z-score, replicate C = -0.23
KRT13 | mean z-score = 1.11; z-score, replicate A = 1.06; z-score, replicate B = 1.3; z-score, replicate C = 0.97
GPC5 | mean z-score = -1; z-score, replicate A = -0.9; z-score, replicate B = -0.9; z-score, replicate C = -1.19
KANSL3 | mean z-score = 0.44; z-score, replicate A = 0.23; z-score, replicate B = 0.39; z-score, replicate C = 0.69
ITGA2B | mean z-score = -0.53; z-score, replicate A = -0.62; z-score, replicate B = -0.49; z-score, replicate C = -0.48

A run of entries taken from the entries so far, as a working copy:
C2CD4B | mean z-score = -0.41; z-score, replicate A = -0.94; z-score, replicate B = -0.3; z-score, replicate C = -0.01
PPP2CB | mean z-score = 0.05; z-score, replicate A = 0.27; z-score, replicate B = 0.08; z-score, replicate C = -0.19
